Measured values as given in paper PMC6753678, “Fueling Open Innovation for Malaria Transmission-Blocking Drugs: Hundreds of Molecules Targeting Early Parasite Mosquito Stages” (Frontiers in Microbiology, 2019).

Test system: P. falciparum late stage (stages IV-V) gametocytes
Experiment: P. falciparum late stage gametocyte ATP depletion assay (Pf GC-ATP)
[1] = unified cytotox / Pf GC-ATP IC50, red: <10-fold selectivity, green: >10-fold

O=C(O)C(F)(F)F.c1cc(CN2CCC(CCN3CCCCC3)CC2)cc(-c2cccc(-c3nc4ccccc4[nH]3)c2)c1 [TCMDC-133920] was tested, and the “Assay tox ratio Pf GC-ATP” value [1] was 44.66.
Cc1cccc2nc(-c3ccc(-c4cccc(CN5CCC(CCN6CCCCC6)CC5)c4)s3)[nH]c12.O=C(O)C(F)(F)F [TCMDC-133923] was tested, and the “Assay tox ratio Pf GC-ATP” value [1] was 8.35.
Cc1cccc2nc(-c3ccc(-c4ccc(CN5CCC(CCN6CCCCC6)CC5)cc4)cc3)[nH]c12.O=C(O)C(F)(F)F [TCMDC-133929] was tested, and the “Assay tox ratio Pf GC-ATP” value [1] was 13.88.
Fc1ccc2[nH]c(-c3ccc(-c4ccc(CN5CCC(CCN6CCCCC6)CC5)cc4)s3)nc2c1.O=C(O)C(F)(F)F [TCMDC-133932] was tested, and the “Assay tox ratio Pf GC-ATP” value [1] was 27.14.
With Nc1ncc(-c2ccc3nccc(-c4ccncc4)c3c2)cc1S(=O)(=O)N1CCOCC1 [TCMDC-134180] the “Assay tox ratio Pf GC-ATP” value [1] was 3.62.
With Nc1ncc(-c2ccc3nccc(-c4ccncc4)c3c2)cc1S(=O)(=O)N1CCCCC1 [TCMDC-134265] the “Assay tox ratio Pf GC-ATP” value [1] was 12.06.
For COc1ccc(-c2cnn3ccc(Nc4cc(OC)c(OC)c(OC)c4)nc23)cc1OC [TCMDC-134383], the “Assay tox ratio Pf GC-ATP” value [1] was 7.98.
With CCc1ccc(CN2CCC(CNC(=O)c3cc(-c4cccc(F)c4)cs3)C2)cc1.O=C(O)C(F)(F)F (stereo not shown) [TCMDC-134432] the “Assay tox ratio Pf GC-ATP” value [1] was 5.75.
For COc1ccc2nc(-c3cccc(C)n3)nc(Nc3ccncc3)c2c1 [TCMDC-134670], the “Assay tox ratio Pf GC-ATP” value [1] was 9.96.
For COCCn1c(-c2cccc(Cl)c2)nn(-c2ccc([N+](=O)[O-])cc2C#N)c1=S [TCMDC-134719], the “Assay tox ratio Pf GC-ATP” value (unified cytotox / IC50, <10-fold red, >10-fold green) was 36.01.
With COc1ccccc1CCNc1nc(C)cc(N[C@@H](Cc2ccccc2)C(=O)NCc2cccc(F)c2)n1.O=C(O)C(F)(F)F [TCMDC-134893] the “Assay tox ratio Pf GC-ATP” value [1] was 1.19.
With CC(C)(C)OC(=O)NCc1ccc(Nc2nnc(-c3ccc(OCC(=O)NCc4ccc(C(C)(C)C)cc4)c([N+](=O)[O-])c3)o2)cc1 [TCMDC-134991] the “Assay tox ratio Pf GC-ATP” value [1] was 4.50.
In the case of CN1CCN(CC2(Nc3nccc(NCCc4cn(C)c5ccccc45)n3)CCCCC2)CC1 [TCMDC-135122], the “Assay tox ratio Pf GC-ATP” value [1] is reported as 9.96.
In the case of COc1cccc(Nc2c(C(N)=O)cnc3ccc(-c4ccc([S+](C)[O-])cc4)cc23)c1.O=C(O)C(F)(F)F (stereo not shown) [TCMDC-135184], the “Assay tox ratio Pf GC-ATP” value [1] is reported as 17.54.
For Cc1cccc(-c2nc(Nc3ccncc3)c3cc(N(C)C)ccc3n2)n1 [TCMDC-135308], the “Assay tox ratio Pf GC-ATP” value [1] was 9.40.
For COc1cc(NC(=O)c2sc(-c3ccc(Cl)cc3)cc2NC(=O)c2cccnc2)ccc1OCCN1CCCC1 [TCMDC-135397], the “Assay tox ratio Pf GC-ATP” value [1] was 40.76.
In the case of COc1cc(NC(=O)c2sc(-c3ccc(Cl)cc3)cc2NC(=O)c2ccncc2)ccc1OCCN1CCCC1 [TCMDC-135398], the “Assay tox ratio Pf GC-ATP” value [1] is reported as 21.53.
With CCN(CC)CCCNc1nccc(N2CCc3ncnc(Nc4ccc(OCc5cccc(F)c5)c(Cl)c4)c3C2)n1 [TCMDC-135406] the “Assay tox ratio Pf GC-ATP” value [1] was 7.80.
With COc1cc2ccccc2cc1OCCCN1CCN(CC(c2ccc(F)cc2)N2CCN(C(C)C)CC2)CC1.Cl (stereo not shown) [TCMDC-135496] the “Assay tox ratio Pf GC-ATP” value [1] was 2.99.
For COC(=O)c1sc(-c2ccc(Cl)cc2)cc1N(CCCN1CCC(N2CCCCC2)CC1)S(=O)(=O)c1ccc(C)cc1 [TCMDC-135561], the “Assay tox ratio Pf GC-ATP” value [1] was 1.30.
In the case of CC(C)(C)N1CCC(N(Cc2ccc(-c3ccc(C(F)(F)F)cc3)cc2)C(=O)Cn2c(CCc3cccc(F)c3F)cc(=O)c3cccnc32)CC1.O=C(O)C(O)C(O)C(=O)O [TCMDC-136011], the “Assay tox ratio Pf GC-ATP” value [1] is reported as 1.30.
In the case of CCn1c(-c2nonc2N)nc2c(-c3cccc(NC(=O)Nc4ccccc4OC)c3)ncc(OCCCN)c21.O=C(O)C(F)(F)F [TCMDC-136190], the “Assay tox ratio Pf GC-ATP” value [1] is reported as 13.56.
For CCn1c(-c2nonc2N)nc2c(-c3cccc(NC(=O)Nc4cccc(C#N)c4)c3)ncc(OCCCN)c21.O=C(O)C(F)(F)F [TCMDC-136195], the “Assay tox ratio Pf GC-ATP” value [1] was 7.03.
In the case of Cl.NCCCOc1cnc(-c2ccccc2)c2nc(-c3nonc3N)n(CCc3ccccc3)c12 [TCMDC-136216], the “Assay tox ratio Pf GC-ATP” value [1] is reported as 4.01.
In the case of O=C(Nc1ccc(F)c(C(F)(F)F)c1)NC1CCN(CCCCCNC(=O)C2CC2c2ccc(Cl)c(Cl)c2)CC1 (stereo not shown) [TCMDC-136259], the “Assay tox ratio Pf GC-ATP” value [1] is reported as 1.47.
